The structures given here were assigned with low confidence; some may be wrong.
Target: S. aureus SgtB (Staphylococcus aureus, UniProt Q99T05)
Test: Dose-dependent displacement of probe CMG121 from S. aureus SgtB by fluorescence polarization
Assay type: binding
Conditions: read-out: IC50 from FP Assay; displacement of 75 nM CMG121 from S. aureus SgtB, 30 min at 4° C.
Protocol: I. Dose-Dependent Displacement of CMG121 from S. aureus SgtB by Fluorescence Polarization
A black 384 well plate (Corning NBS Low Volume No. 3820) was filled (10 μL per well) with an equilibrated solution containing 10 mM TRIS (pH=8.0), 100 mM NaCl, 75 nM CMG121, and 1.0-1.5 μM S. aureus SgtB (depending on protein batch). Due to presence of 8 mM CHAPS detergent in the buffer of the S. aureus SgtB stock, the final assay solution contains 100-160 μM CHAPS. Using an HP D300 Digital Dispenser, for each compound a 1/1 dilution series (12 wells) of the primary hit compound in DMSO (normalized to 1 μL with DMSO) was prepared and added to the aforementioned assay solution. The plate was incubated at 4° C. for 30 min and read with a Perkin Elmer EnVision microplate reader (FP-read out, excitation: 480 nm; emission: 535 nm). Data was plotted for fluorescence polarization (FP) (y-axis) vs. log(concentration of test compound in μM; x-axis), and IC50 values were determined by non-linear regression analysis using GraphPad Prism 5.0 (GraphPad Software, Inc.; La Jolla, Calif., USA).
FIGS. 10A-E show values of reduction of fluorescence polarization for exemplified compounds. […] In the primary assay, FP was read after 30 min at 4° C., compound concentration was ca. 100 μM, and 90% reduction in FP was threshold for scoring hits (Gampe et al., J. Am. Chem. Soc. 2013, 135 (10), 3776-3779; U.S. Provisional Patent Application, U.S. Ser. No. 61/621,229, filed on Apr. 6, 2012; International Application No. PCT/US2013/030800 filed on Mar. 13, 2013).
The values were determined in two independent experiments. IC50=10 μM; Hill slope: −0.92.

The chains behind the UniProt entries cited, without tags or fusion partners. Residues count along the entry.
UniProt Q99T05, 68-269 limits assumed: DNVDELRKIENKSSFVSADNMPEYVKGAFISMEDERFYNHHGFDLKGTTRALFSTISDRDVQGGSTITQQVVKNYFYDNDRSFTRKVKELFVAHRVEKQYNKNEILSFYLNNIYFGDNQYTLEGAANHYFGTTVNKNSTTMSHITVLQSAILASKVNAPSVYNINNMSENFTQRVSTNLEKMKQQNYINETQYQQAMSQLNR

SMILES | IC50
Cc1cc(OCCCSc2nc(-c3ccc(C(C)(C)C)cc3)nc3cc(=O)[nH]n23)ccc1Cl [Example 2, 2-(4-tert-butylphenyl)-4-{[3-(4-chloro-3-methylphenoxy)propyl]sulfanyl}-6H,7H-pyrazolo[1,5-a][1,3,5]triazin-7-one] | 14 µM
Cc1cc(OCCCNc2nc(-c3ccc(C(C)(C)C)cc3)nc3cc(=O)[nH]n23)ccc1Cl [Example 14, 2-(4-tert-butylphenyl)-4-{[3-(4-chloro-3-methylphenoxy)propyl]amino}-6H,7H-pyrazolo[1,5-a][1,3,5]triazin-7-one] | 21 µM
CCCCNc1nc(-c2ccc(C(C)(C)C)cc2)nc2cc(=O)[nH]n12 [Example 16, 4-(butylamino)-2-(4-tert-butylphenyl)-6H,7H-pyrazolo[1,5-a][1,3,5]triazin-7-one] | > 200 µM

From patent US20180162862A1 (President and Fellows of Harvard College, priority 2015, published 2018)
